Compound potency records, mixed from different reports. Data source: NIAID ChemDB in PubChem.

All rows: growth or infection tests; agent: Mycobacterium tuberculosis

Neighbouring rows are from separate reports. MIC bound comes from a single tested concentration. A number after MIC or MFC names an inhibition level or a share of isolates. An empty or dashed field is not shown. ECn is the concentration giving n% inhibition of infection, replication or growth. Inhibition is in % at the dose shown (toxicity tests: loss of growth or viability).

compound,strain or isolate,read by,dose,endpoint,conditions,changes,value
CC(=O)Nc1ccc(S(=O)(=O)c2ccc(Nc3ccnc4ccc(C)cc34)cc2)cc1,Strain 1 (MDR),,,MIC,,,1 µg/mL
COc1cc2c3c(OC)cc4c(c3c[n+](C)c2c2cc3c(cc12)OCO3)OCO4,H37Rv,BACTEC,,MIC,,,<12.5 µg/mL
O=C1NN2CCN=C2c2ccncc21,H37Rv,BACTEC,,MIC bound,,,>12.5 µg/mL
O=C(NNc1cc(-c2ccccc2)nc2ccccc12)c1ccncc1,Strain 1 (MDR),,,MIC,,,1 µg/mL
Cc1cccc(C(N)=Nc2nc(-c3ccccn3)cc3ccccc23)c1,J-3125,,,MIC,,,0.25 µg/mL
O=C(/C=C/c1c(F)cccc1Cl)c1ccccc1,H37Rv,MTT,,MIC,14 d,,16 µg/mL
NC(=S)NNC(=O)c1ccncc1,Strain 2 (MDR),,,MIC,,,1 µg/mL
NNC(=O)c1ccncc1,H37Ra,turbidity,,EC50,,,0.05 µM
COc1cc2c(c3c1c[n+](C)c1c4cc5c(cc4ccc31)OCO5)OCO2,H37Rv,BACTEC,,MIC,,,>12.5 µg/mL
Cc1cccc(OC(=O)c2ccc(N)cc2O)c1,H37Rv (streptomycin-resistant),,,MIC,,,0.005 µg/mL
CO[C@H]1/C=C/O[C@@]2(C)Oc3c(C)c(O)c4c(O)c(c(/C=N/N5CCN(C)CC5)c(O)c4c3C2=O)NC(=O)/C(C)=C\C=C\[C@H](C)[C@H](O)[C@@H](C)[C@@H](O)[C@@H](C)[C@H](OC(C)=O)[C@@H]1C,H37Rv,turbidity,,MIC90,,,1 µM
COc1c(N2CC[C@@H](C(C)(C)N)C2)c(F)cc2c(=O)c3c(=O)[nH]sc3n(C3CC3)c12,Pan-susceptible clinical isolate 14,,,MIC,,,0.06 µg/mL
Cc1[nH]c(=O)[nH]c(=O)c1/C=C/C(=O)NC(CO)CC(C)C,H37Rv,BACTEC,,MIC bound,,,>12.5 µg/mL
O=[N+]([O-])c1cc(C(F)(F)F)cc2nc(C3=NCCO3)sc12,H37Rv,resazurin / absorbance,,MIC80,,BTZ-resistant (C387G),>64 µg/mL
Cc1c(F)c(N2CCNC(C)C2)cc2c1c(=O)c(C(=O)O)cn2C1CC1,250 isolates,,,MIC90,,,1 µg/mL
NC1=C([N+](=O)[O-])NC2OC[C@@H](OCc3ccc(OC(F)(F)F)cc3)CN12,F420-,broth dilution,,MIC,,,>100 µM
CO[C@H]1/C=C/O[C@@]2(C)Oc3c(C)c(O)c4c(O)c(c5c(c4c3C2=O)NC2(CCN(CC(C)C)CC2)N=5)=NC(=O)/C(C)=C\C=C\[C@H](C)[C@H](O)[C@@H](C)[C@@H](O)[C@@H](C)[C@H](OC(C)=O)[C@@H]1C,S-3M (susceptible),,,MIC,,,0.05 µg/mL
NC(=S)NNC(=S)S,PAS-R,,,MIC,,,>12.5 µg/mL
Clc1ccc(-c2csc(-n3cccc3)n2)cc1,H37Rv,resazurin,,MIC,,,0.4 µg/mL
CCC1CN(c2c(F)cc3c(=O)c(C(=O)O)cn(C4CC4)c3c2OC)CCN1,Isolate TN5355,,,MIC,,,0.2 µg/mL
Nc1ccc(C(=O)Oc2ccccc2)c(O)c1,Frankfurt,,,MIC,,,0.025 µg/mL
COc1ccc(C(=O)/C=C/c2ccc(F)cc2Cl)cc1,H37Rv,MTT,,MIC,21 d,,64 µg/mL
O=C(NN1C(=O)c2ccc([N+](=O)[O-])cc2C1=O)c1ccc(-n2cccc2)cc1,H37Rv,resazurin,,MIC,,,3.125 µg/mL
O=C(COc1cnccn1)N/N=c1\scc(-c2ccc(Cl)cc2Cl)n1-c1ccc(Cl)cc1[N+](=O)[O-],H37Rv,,,MIC,,,5 µg/mL
CC(=O)NC[C@H]1CN(c2ccc(N3CCN(c4ccc([N+](=O)[O-])s4)CC3)c(F)c2)C(=O)O1,H37Ra,,,MIC,,,≤0.125 µg/mL
Cc1cc(COC(=O)c2ccc(N)cc2O)ccc1C(C)C,H37Rv,,,MIC,,,0.01 µg/mL
CC(C)C[C@@H]1NC(=O)[C@H](Cc2c[nH]c3ccccc23)NC(=O)[C@@H](CCCN=C(N)N)NC(=O)[C@H](CC(N)=O)NC(=O)[C@H](C(C)C)NC(=O)[C@@H](CC(C)C)NC1=O,H37Ra,turbidity,,EC50,,,0.13 µM
CCC1C[N+]2=C(c3cc(OC)c(OC)cc3CC2)c2c1cc1n2CCc2cc(OC)c(OC)cc2-1,PAS-R,,,MIC,,,6.4 µg/mL
CC(C)CNC(=S)NNC(=O)COc1cnccn1,H37Rv,,,MIC,,,49 µg/mL
O=c1oc2ccc(Br)cc2cc1-c1cn2ccccc2n1,H37Rv,BACTEC,,MIC,,,>6.25 µg/mL
Cc1cc(C)cc(-n2nnc3ccccc3c2=O)c1,H37Rv,resazurin,6.25 µg/mL,inhibition,,,48%
O=c1oc2c(Br)cc(Br)cc2cc1-c1cn2ccccc2n1,H37Rv,BACTEC,,MIC,,,>6.25 µg/mL
Cc1c(C(F)(F)F)cc2nc(C3=N[C@H](C(=O)N4CCCC4)CO3)sc2c1[N+](=O)[O-],H37Rv,resazurin / absorbance,,MIC80,,BTZ-resistant (C387G),>64 µg/mL
Cc1ccc(C)n1-c1ccc(C(=O)NN2C(=O)C=CC2=O)cc1,H37Rv,resazurin,,MIC,,,12.5 µg/mL
COc1cc(Br)cc2cc(-c3cn4ccc(C)cc4n3)c(=O)oc12,H37Rv,BACTEC,6.25 µg/mL,inhibition,,,57%
CC(=O)Nc1ccc(S(=O)(=O)c2ccc(N)cc2)cc1,Strain 2 (MDR),,,MIC,,,0.5 µg/mL
O=c1oc2c(Br)cc(Br)cc2cc1-c1cn2cc(Br)ccc2n1,H37Rv,BACTEC,6.25 µg/mL,inhibition,,,17%
COc1cccc2c(Nc3ccc(S(=O)(=O)c4ccc(NC(C)=O)cc4)cc3)ccnc12,Strain 1 (MDR),,,MIC,,,1 µg/mL
O=C(/C=C/c1ccccc1)c1ccc(O)cc1,H37Rv,MTT,,MIC,7 d,,32 µg/mL
COCCN1CCN(C(=O)c2nc3cc(C(F)(F)F)cc([N+](=O)[O-])c3s2)CC1,H37Rv,resazurin / absorbance,,MIC80,,BTZ-resistant (C387S),>64 µg/mL
Nc1ccc(S(=O)(=O)Nc2ccnn2-c2ccccc2)cc1,Strain 1 (MDR),,,MIC,,,0.5 µg/mL
C=C(NC(=O)C(C)NC(=O)OCc1ccccc1)C(=O)N1CCCC1C(=O)NC(C)C(=O)NC,H37Rv,BACTEC,,MIC bound,,,>12.5 µg/mL
Cc1ccc(C)n1-c1nc(-c2cccc([N+](=O)[O-])c2)cs1,H37Rv,resazurin,,MIC,,,0.8 µg/mL
O=C(NC(=O)Nc1ccc(Cl)cc1)NC(=O)c1ccccc1F,H37Rv,BACTEC,,MIC bound,,,≤12.5 µg/mL
Cc1ccn2cc(-c3cc4cccc([N+](=O)[O-])c4oc3=O)nc2c1,H37Rv,BACTEC,6.25 µg/mL,inhibition,,,100%
C[C@@H]1CN(c2c(F)c(N)c3c(=O)c(C(=O)O)cn(C4CC4)c3c2F)C[C@H](C)N1,MDR-22 (MDR),,,MIC,,,<0.1 µg/mL
O=C(/C=C/c1ccc(F)cc1Cl)c1ccc(F)cc1,H37Rv,MTT,,MIC,,,32 µg/mL
Cc1ccc2nc(-c3ccccc3)cc(Nc3cccc(O)c3)c2c1,Strain 1 (MDR),,,MIC,,,4 µg/mL
CP(=O)(N/N=C/C(=O)O)c1ccccc1,H37Rv,BACTEC,,MIC bound,,,>12.5 µg/mL
COc1cc2c(cc1OC(C)C)c[n+](C)c1c3cc4c(cc3ccc21)OCO4,H37Rv,BACTEC,,MIC,,,>12.5 µg/mL
O=C1CSCC(=O)OCCOCCSCCOCCO1,H37Rv,BACTEC,,MIC bound,,,>12.5 µg/mL
O=C(/C=C/c1c(F)cccc1Cl)c1ccc(F)cc1,H37Rv,resazurin,,MIC,21 d,,64 µg/mL
O=C(COc1cnccn1)N/N=c1\scc(-c2ccc(O)cc2)n1-c1ccc(Cl)cc1Cl,H37Rv,,,MIC,,,21 µg/mL
C/C=C1\CN2CCC1CC2C(O)c1ccnc2ccc(OCC(O)CO)cc12,H37Rv,resazurin,6.25 µg/mL,inhibition,,,4%
C[n+]1cc2cc3c(cc2c2ccc4cc5c(cc4c21)OCO5)OCO3,H37Rv,BACTEC,,MIC,,,<12.5 µg/mL
Cc1ccn2cc(-c3cc4cc(Br)cc(Br)c4oc3=O)nc2c1,H37Rv,BACTEC,,MIC,,,>6.25 µg/mL
Cc1ccc(C)n1-c1nc(-c2ccc(O)cc2)cs1,H37Rv,resazurin,,MIC,,,12.5 µg/mL
CC(=O)O[C@H]1C(=O)[C@@]2(C)[C@H]([C@H](OC(=O)c3ccccc3)[C@]3(O)C[C@H](OC(=O)[C@H](O)[C@@H](NC(=O)c4ccccc4)c4ccccc4)C(C)=C1C3(C)C)[C@]1(OC(C)=O)CO[C@@H]1C[C@@H]2O,H37Rv,BACTEC,,MIC,,,≥12.8 µg/mL
Nc1cccc2nc(-c3cc4cccc([N+](=O)[O-])c4oc3=O)cn12,H37Rv,BACTEC,6.25 µg/mL,inhibition,,,100%
N#CC1(OC2OC(CO)C(O)C(O)C2O)C=CC(O)C1O,H37Rv,BACTEC,12.5 µg/mL,inhibition,,,-7%
CC(C)C[C@@H]1NC(=O)[C@H](Cc2c[nH]c3ccccc23)NC(=O)[C@H](CCCCN)NC(=O)[C@H](CC(N)=O)NC(=O)[C@H](C(C)C)NC(=O)[C@@H](CC(C)C)NC1=O,H37Rv,turbidity,,MIC90,,,>30 µM
C[C@@H]1CN(c2c(F)c(N)c3c(=O)c(C(=O)O)cn(C4CC4)c3c2F)C[C@H](C)N1,19 strains,,,MIC50,,,0.12 µg/mL
CN(C)[C@@H]1C(=O)C(C(=O)NCNC2CC(C)(C)N(O)C(C)(C)C2)=C(O)C2(O)C(=O)C3=C(O)c4c(O)cccc4[C@@](C)(O)C3CC12,H37Rv,BACTEC,12.5 µg/mL,inhibition,,,95%
COc1c(O)ccc2c1c[n+](C)c1c3cc4c(cc3ccc21)OCO4,H37Rv,BACTEC,12.5 µg/mL,inhibition,,,77%
CC(=O)N1CC(C)(C)c2c(C)c(O)c(C)c(C)c21,H37Rv,resazurin,6.25 µg/mL,inhibition,,,11%
Cc1c(C(F)(F)F)cc2ncsc2c1[N+](=O)[O-],H37Rv,resazurin / absorbance,,MIC80,,,>16 µg/mL
CC(C)C[C@@H]1NC(=O)[C@H](Cc2c[nH]c3ccccc23)NC(=O)[C@@H](CCCN)NC(=O)[C@H](CC(N)=O)NC(=O)[C@H](C(C)C)NC(=O)[C@@H](CC(C)C)NC1=O,CDC1551,turbidity,,EC50,,,1.82 µM
COCCN1CCN(C(=O)c2nc3cc(C(F)(F)F)c(C)c([N+](=O)[O-])c3s2)CC1,H37Rv,resazurin / absorbance,,MIC80,,Overexpressing Rv3790 (DprE1),8 µg/mL
S=C(Nc1ccc(N=Nc2ccccc2)cc1)SCc1ccccc1,H37Rv,BACTEC,,MIC bound,,,≤128 µg/mL
O=C(NN1C(=O)[C@H]2CCCC[C@H]2C1=O)c1ccc(-n2cccc2)cc1,H37Rv,resazurin,,MIC,,,3.125 µg/mL
Cc1c2ccncc2c(C)c2c1sc1ccccc12,H37Rv,resazurin,,MIC bound,,,<6.25 µg/mL
C[C@H]1[C@H](C)CC[C@]2(C(=O)O)CC[C@]3(C)C(CC[C@@H]4[C@@]5(C)C[C@H](O)CC(C)(C)[C@@H]5CC[C@]43C)[C@H]12,RIF-R (ATCC 35838),resazurin,,MIC,,,25 µg/mL
O=C(/C=C/C(=O)Nc1ccc(O)cc1)Nc1ccc(O)cc1,H37Rv,resazurin,6.25 µg/mL,inhibition,,,5%
COc1cc([N+](=O)[O-])cc2cc(-c3cn4ccccc4n3)c(=O)oc12,H37Rv,BACTEC,,MIC,,,>6.25 µg/mL
Cc1c(C)[n+](=O)c2ccc(/C=N/N3CCOC3=O)cc2n1[O-],H37Rv,BACTEC,12.5 µg/mL,inhibition,,,0%
O=C(/C=C/c1ccc(F)cc1)c1ccc(F)cc1,H37Rv,resazurin,,MIC,21 d,,32 µg/mL
O=c1c2ccccc2nc(-c2ccccc2Cl)n1-c1nnc(C(F)(F)F)s1,H37Rv,BACTEC,,MIC bound,,,>12.5 µg/mL
O=C(COc1cnccn1)N/N=C1\SCC(=O)N1c1ccc(Cl)cc1,H37Rv,,,MIC,,,102 µg/mL
Cc1ncc(CO)c(C2NCCS2)c1O,H37Rv,BACTEC,,MIC bound,,,>12.5 µg/mL
C[C@H]1COc2c(N3CCN(C)CC3)c(F)cc3c(=O)c(C(=O)O)cn1c23,44 isolates (resistant),,,MIC90,,,1 µg/mL

Repeating the first 4 entries:

compound | strain or isolate | read by | dose | endpoint | conditions | changes | value
CC(=O)Nc1ccc(S(=O)(=O)c2ccc(Nc3ccnc4ccc(C)cc34)cc2)cc1 | Strain 1 (MDR) |  |  | MIC |  |  | 1 µg/mL
COc1cc2c3c(OC)cc4c(c3c[n+](C)c2c2cc3c(cc12)OCO3)OCO4 | H37Rv | BACTEC |  | MIC |  |  | <12.5 µg/mL
O=C1NN2CCN=C2c2ccncc21 | H37Rv | BACTEC |  | MIC bound |  |  | >12.5 µg/mL
O=C(NNc1cc(-c2ccccc2)nc2ccccc12)c1ccncc1 | Strain 1 (MDR) |  |  | MIC |  |  | 1 µg/mL